The target in experiment [1] is Frankfurt 1 (SARS-CoV isolate Frankfurt 1).

With ACE2-Fc (Fc fusion), the KD App in experiment [1] amounted to 8.74 nM; with SARS-CoV-1 (SARS-CoV), 8.24 nM; with SARS-CoV-2 (SARS-CoV-2), 10.4 nM.

Source of the values: patent US20260078171A1.
